Data as given in PubChem BioAssay AID624099 (ICCB-Longwood, 2012).

- Aim: 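Host factors E2 relies on to silence an HPV18 LCR reporter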 (primary screen)
- Cells: human C33A cervical carcinoma cells (HPV-negative) stably expressing BPV1 E2 and an HPV18 LCR luciferase reporter
- Reagent: siRNA pool against human genes, 40 nM
- Duration: 72 h
- Measured: 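Per-well luciferase luminescence, z-scored on each plate against the plate mean and SD with control wells left out, then averaged across three replicate plates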
- Direction: mean z-score and z-score: higher = stronger reporter signal, weaker E2 silencing
- Hit rule: 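Mean z ≥ 2 together with z ≥ 2 in two or more of the three replicates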
This is one part, drawn at random, of about 21,000 reagents tested. Over the whole deposit, 497 (2.4%) got an active call. 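Higher z means weaker E2 silencing; only reporter increases were scored, and knock-downs that hurt cell survival may mask genuine repressor factors.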

gene,PubChem SID,mean z-score,"z-score, replicate A","z-score, replicate B","z-score, replicate C",outcome
C1QTNF3,SID134318794,-0.72,-0.8,-0.64,-0.73,inactive
SEC14L3,SID134323049,0.41,0.37,0.45,0.42,inactive
PRSS50,SID134313892,-0.34,-0.11,-0.07,-0.83,inactive
EFCAB7,SID134325180,-0.55,-0.58,-0.48,-0.6,inactive
DKFZP586I1420,SID134320764,-0.75,-0.84,-0.52,-0.88,inactive
ARHGEF2,SID134314580,-0.13,-0.1,-0.28,-0.01,inactive
LY6G6E,SID134318484,-0.2,0.34,-0.32,-0.62,inactive
LOC387781 (retired record),SID134328260,0.75,0.56,0.86,0.83,inactive
SYT2,SID134322647,-0.01,-0.12,0.18,-0.11,inactive
AARSD1,SID134318740,0.79,0.57,0.71,1.09,inactive
NOS1AP,SID134317671,-1.07,-1.19,-1.06,-0.97,inactive
RNF26,SID134312183,0.3,0.27,0.55,0.06,inactive
TBC1D10C,SID134329277,0.78,0.73,0.45,1.18,inactive
CRYAA,SID134317697,-1.19,-1.12,-1.11,-1.33,inactive
PRKAR1A,SID56479177,-0.96,-0.92,-1.1,-0.86,inactive
PGRMC1,SID134315137,-1.74,-1.66,-1.91,-1.63,inactive
CYP1A2,SID134313209,-0.13,-0.05,-0.08,-0.25,inactive
DGKI,SID56479093,-0.41,-0.23,-0.51,-0.49,inactive
FUCA1,SID134313860,-0.44,-0.59,-0.47,-0.26,inactive
PCNX3,SID134328261,0.12,0.44,0.06,-0.13,inactive
SUMO3,SID134323499,0.91,0.74,1.15,0.84,inactive
TSPAN8,SID134314822,1.24,1.47,1.51,0.74,inactive
CHST7,SID134313315,-0.82,-1.04,-0.68,-0.75,inactive
TNFRSF10C,SID134313018,0.73,0.63,0.74,0.83,inactive
CSN2,SID134323301,-0.69,-0.57,-1.05,-0.45,inactive
LOC338731 (retired record),SID134326631,0.46,0.54,0.26,0.59,inactive
RAB20,SID134313196,0.5,0.37,0.34,0.78,inactive
FAM27E5,SID134329380,-0.18,-0.17,-0.32,-0.06,inactive
TACO1,SID134321623,2.88,2.25,2.86,3.52,active
PLXNB2,SID134329127,-0.4,-0.41,-0.35,-0.43,inactive
MAGEC1,SID134316345,1.09,0.62,1.67,0.99,inactive
PRM1,SID134323468,0.99,0.9,1.07,0.99,inactive
SLC25A45,SID134312399,-0.29,-0.13,-0.25,-0.48,inactive
LOC150580 (retired record),SID134325421,0.37,1.06,0.36,-0.29,inactive
LOC400496 (retired record),SID134328684,0.51,0.63,0.58,0.32,inactive
CALHM4,SID134320132,0.3,0.38,0.45,0.06,inactive
PAPOLB,SID134314235,0.57,0.62,0.69,0.4,inactive
RPL37,SID134315505,-3.13,-3.2,-3.11,-3.1,inactive
OPRD1,SID134311122,-0.5,-0.7,-0.38,-0.42,inactive
TRIML1,SID134312295,-0.1,0.05,-0.33,-0.02,inactive
EDC3,SID134321094,-0.56,-0.28,-0.84,-0.54,inactive
GPR88,SID134311048,0.42,0.34,0.47,0.45,inactive
LONRF2,SID134326814,0.69,1.03,0.72,0.32,inactive
F2RL3,SID134310937,0.31,0.3,0.28,0.36,inactive
CIRSR,SID134320236,-0.18,-0.32,-0.26,0.04,inactive
APOBEC1,SID134315900,-0.96,-0.54,-1.27,-1.06,inactive
SMAP1,SID134321219,1.2,1.66,1.2,0.75,inactive
OPTN,SID134320269,-1.62,-1.53,-1.43,-1.92,inactive
CCT5,SID134317049,0.97,1.16,0.78,0.96,inactive
PACC1,SID134324654,-0.54,-0.92,-0.73,0.02,inactive
RIMBP3C,SID134326098,-0.04,0.31,-0.28,-0.16,inactive
CASS4,SID134324201,0.58,0.69,0.77,0.29,inactive
FLJ33534,SID134322684,-0.69,-0.96,-0.41,-0.69,inactive
POLR2J,SID134316533,-0.42,-0.29,-0.17,-0.79,inactive
ARHGAP25,SID134324780,0.43,0.26,0.46,0.56,inactive
CCDC117,SID134322407,-0.73,-0.18,-1.07,-0.94,inactive
MINDY1,SID134321073,0.81,0.77,0.78,0.87,inactive
